{"source": "PubChem BioAssay AID1259414 (Drosophila RNAi Screening Center, 2018)", "test": "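Host factors increasing or decreasing Wolbachia levels in cultured fly cells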 (primary screen)", "system": "Drosophila JW18 cells infected with Wolbachia", "reagents": "long dsRNA against Drosophila genes, 0.25 µg dsRNA per well of a 384-well plate", "duration": "5 days", "conditions": "cells persistently infected with Wolbachia before knock-down; no added drug", "read-out": "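Imaged fluorescence in situ signal for Wolbachia 23S rRNA per DAPI-counted host cell, given as a robust z-score within each plate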", "direction": "Wolbachia per cell robust z: higher = more Wolbachia per host cell than the plate typical", "call rule": "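Active if absolute robust z reaches 1.5 in two or more of three replicates, leaving out multi- or no-target dsRNAs, genes unexpressed in JW18 and A1 wells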", "note": "In all, the deposit lists about 24,000 reagents; shown is an unselected part of those with a known target gene and a result. In the full data, about 1,210 (5%) got an active call. 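Inactive calls also include excluded dsRNAs with several or no targets, genes unexpressed in JW18, and well A1, regardless of score.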 Unmarked entries are inactive. The numbers tell different reagents against one gene apart. Names joined by + are all predicted targets of the reagent."}
{"target gene": "CG30491", "reagent no.": 1, "Wolbachia per cell robust z, rep 1": 0.673, "Wolbachia per cell robust z, rep 2": -0.868, "Wolbachia per cell robust z, rep 3": 1.14}
{"target gene": "CG30491", "reagent no.": 2, "Wolbachia per cell robust z, rep 1": -1.16, "Wolbachia per cell robust z, rep 2": -0.468, "Wolbachia per cell robust z, rep 3": -0.5}
{"target gene": "CG13404", "reagent no.": 1, "Wolbachia per cell robust z, rep 1": 0.989, "Wolbachia per cell robust z, rep 2": 0.31, "Wolbachia per cell robust z, rep 3": -0.776}
{"target gene": "CR32733", "reagent no.": 1, "Wolbachia per cell robust z, rep 1": 0.264, "Wolbachia per cell robust z, rep 2": 0.661, "Wolbachia per cell robust z, rep 3": 0.42}
{"target gene": "CR32733", "reagent no.": 2, "Wolbachia per cell robust z, rep 1": -0.505, "Wolbachia per cell robust z, rep 2": 0.234, "Wolbachia per cell robust z, rep 3": -0.166}
{"target gene": "rux", "reagent no.": 1, "Wolbachia per cell robust z, rep 1": "-16.9 (active)", "Wolbachia per cell robust z, rep 2": -7.46, "Wolbachia per cell robust z, rep 3": -2.39}
{"target gene": "CG31301", "reagent no.": 1, "Wolbachia per cell robust z, rep 1": -0.276, "Wolbachia per cell robust z, rep 2": -0.512, "Wolbachia per cell robust z, rep 3": -1.61}
{"target gene": "CG4896", "reagent no.": 1, "Wolbachia per cell robust z, rep 1": "-1.93 (active)", "Wolbachia per cell robust z, rep 2": -2.23, "Wolbachia per cell robust z, rep 3": 1.34}
{"target gene": "CG4896", "reagent no.": 2, "Wolbachia per cell robust z, rep 1": -0.114, "Wolbachia per cell robust z, rep 2": -0.908, "Wolbachia per cell robust z, rep 3": -0.198}
{"target gene": "CG15478", "reagent no.": 1, "Wolbachia per cell robust z, rep 1": 0.22, "Wolbachia per cell robust z, rep 2": -1.65, "Wolbachia per cell robust z, rep 3": 0.387}
{"target gene": "CG15478", "reagent no.": 2, "Wolbachia per cell robust z, rep 1": -1.11, "Wolbachia per cell robust z, rep 2": 1.38, "Wolbachia per cell robust z, rep 3": -9.48}
{"target gene": "CG6738", "reagent no.": 1, "Wolbachia per cell robust z, rep 1": -2.64, "Wolbachia per cell robust z, rep 2": -0.146, "Wolbachia per cell robust z, rep 3": -0.0983}
{"target gene": "CG6738", "reagent no.": 2, "Wolbachia per cell robust z, rep 1": -0.151, "Wolbachia per cell robust z, rep 2": 0.924, "Wolbachia per cell robust z, rep 3": 0.072}
{"target gene": "CG5787", "reagent no.": 1, "Wolbachia per cell robust z, rep 1": 0.929, "Wolbachia per cell robust z, rep 2": 1.32, "Wolbachia per cell robust z, rep 3": 1.75}
{"target gene": "CG5787", "reagent no.": 2, "Wolbachia per cell robust z, rep 1": -0.734, "Wolbachia per cell robust z, rep 2": 0.591, "Wolbachia per cell robust z, rep 3": -0.639}
{"target gene": "CG17472", "reagent no.": 1, "Wolbachia per cell robust z, rep 1": -0.373, "Wolbachia per cell robust z, rep 2": 0.376, "Wolbachia per cell robust z, rep 3": 1.41}

Part of the list above, reduced to “Wolbachia per cell robust z, rep 1”.
CG6738 #1	-2.64
CG6738 #2	-0.151
CG5787 #1	0.929

The listing continues.
{"target gene": "mtTFB1 + Ccdc56", "reagent no.": 1, "Wolbachia per cell robust z, rep 1": -0.527, "Wolbachia per cell robust z, rep 2": -0.458, "Wolbachia per cell robust z, rep 3": 0.212}
{"target gene": "mtTFB1 + Ccdc56", "reagent no.": 2, "Wolbachia per cell robust z, rep 1": 0.409, "Wolbachia per cell robust z, rep 2": 1.35, "Wolbachia per cell robust z, rep 3": -0.988}
{"target gene": "Pif2", "reagent no.": 1, "Wolbachia per cell robust z, rep 1": -1.68, "Wolbachia per cell robust z, rep 2": -0.949, "Wolbachia per cell robust z, rep 3": 0.515}
{"target gene": "Pif2", "reagent no.": 2, "Wolbachia per cell robust z, rep 1": -0.38, "Wolbachia per cell robust z, rep 2": 0.823, "Wolbachia per cell robust z, rep 3": 0.401}
{"target gene": "TTLL3B", "reagent no.": 1, "Wolbachia per cell robust z, rep 1": -0.435, "Wolbachia per cell robust z, rep 2": 1.89, "Wolbachia per cell robust z, rep 3": 0.444}
{"target gene": "CG33941", "reagent no.": 1, "Wolbachia per cell robust z, rep 1": -0.00638, "Wolbachia per cell robust z, rep 2": 0.0157, "Wolbachia per cell robust z, rep 3": -0.851}
{"target gene": "CG33941", "reagent no.": 2, "Wolbachia per cell robust z, rep 1": -0.589, "Wolbachia per cell robust z, rep 2": -4.81, "Wolbachia per cell robust z, rep 3": -0.388}
{"target gene": "CG33941", "reagent no.": 3, "Wolbachia per cell robust z, rep 1": -2.13, "Wolbachia per cell robust z, rep 2": -0.528, "Wolbachia per cell robust z, rep 3": -1.03}
